# Measured values from publication PMC8694051 (Proceedings of the National Academy of Sciences of the …, 2021).
# Tests used:
# Caspase 3 = target: T1, Caspase 3 (Homo sapiens, UniProt P42574); assay: Protease profiling panel, 10-dose IC50; type: biochemical
# T1 sequence (P42574 29-277): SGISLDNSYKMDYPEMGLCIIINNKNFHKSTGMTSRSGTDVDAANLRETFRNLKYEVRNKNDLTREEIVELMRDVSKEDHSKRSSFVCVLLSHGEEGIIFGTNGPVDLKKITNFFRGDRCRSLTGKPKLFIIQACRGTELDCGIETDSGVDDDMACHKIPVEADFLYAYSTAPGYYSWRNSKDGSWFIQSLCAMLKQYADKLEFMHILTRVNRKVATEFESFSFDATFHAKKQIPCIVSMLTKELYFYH
# Elastase = target: T2, Elastase (Homo sapiens, UniProt P08246); assay: Protease profiling panel, 10-dose IC50; type: biochemical
# T2 sequence (P08246 30-267): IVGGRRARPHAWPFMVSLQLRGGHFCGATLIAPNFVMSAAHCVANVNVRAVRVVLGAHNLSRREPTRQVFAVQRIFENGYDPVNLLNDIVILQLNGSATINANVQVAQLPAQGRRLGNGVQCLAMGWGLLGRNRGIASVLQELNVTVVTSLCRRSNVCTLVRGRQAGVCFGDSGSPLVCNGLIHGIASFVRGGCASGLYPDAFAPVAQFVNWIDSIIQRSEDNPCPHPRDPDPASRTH
SMILES,IC50 (Caspase 3) [nM],IC50 (Elastase) [nM]
CC(=O)N[C@@H](CC(=O)O)C(=O)N[C@@H](CCC(=O)O)C(=O)N[C@H](C(=O)N[C@H](C=O)CC(=O)O)C(C)C [DEVD-CHO],1.07,–
CC(C)(C)C(=O)Oc1ccc(S(=O)(=O)Nc2ccccc2C(=O)NCC(=O)O)cc1 [Sivelestat],–,4.83
